Data reported in article PMC6385310 (Scientific Reports, 2019).

Test system: VEEV TC-83 virus expressing a luciferase reporter gene (TC-83-luc)
Assay: VEEV TC-83-luc luciferase reporter replication assay in Vero cells
Format: cell-based, Venezuelan equine encephalitis virus
Settings: CC50 Vero / EC50 TC-83-luc

| Structure (SMILES) | SI, selectivity index (CC50/EC50) |
| --- | --- |
| CC#C[C@]1(O)CC[C@H]2[C@@H]3CCC4=CC(=O)CCC4=C3[C@@H](c3ccc(N(C)C)cc3)C[C@@]21C [Compound 1, mifepristone, reference compound] | 8.3 |
| CN(C)c1ccc([C@H]2C[C@@]3(C)[C@@H](CC[C@@]3(O)C#C[Si](C)(C)C)[C@@H]3CCC4=CC(=O)CCC4=C32)cc1 [Compound 33] | > 11.8 |
| COc1ccc(C#C[C@]2(O)CC[C@H]3[C@@H]4CC[C@@]5(O)CC6(CCC5=C4[C@@H](c4ccc(N(C)C)cc4)C[C@@]32C)OCCO6)cc1 [Compound 37] | > 60.3 |
